Data as given in PubChem BioAssay AID504761 (Drosophila RNAi Screening Center, 2011).

Purpose: 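Insect host genes that dengue virus relies on to spread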 (primary screen)
System: D.Mel-2 cells from Drosophila
Reagents: long dsRNA against Drosophila genes
Treatment: infection with dengue virus type 2; dose and infection time not stated
Read-out: 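Cells stained for dengue envelope protein and imaged; percent of infected cells per well on duplicate plates, ranked by infection, with stained nuclei counted for cell number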
Scale: infection score: higher = more virus-infected cells
Rule for the call: 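Low infection ranks in the two replicates (chance level up to 0.065) followed by a retest with a 1.5-fold or larger significant decrease, p below 0.05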
Calls: active = confirmed: knock-down lowers infection; inactive = not picked or not confirmed
In all, the deposit lists about 22,000 reagents; below is a random part of those with a known target gene and a result. Over the whole deposit, 116 (0.52%) were called active. 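Calls depend on retest data that are not deposited; infection was ranked per plate without normalising between plates; the unit of the infection score is not given.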 A number with no mark means an inactive call. Not all columns of the deposit are shown. Not given: the amount of reagent, the time to read-out.

infection score, replicate 1, by gene knocked down and reagent
CG1979: DRSC12495 10.6; DRSC24707 6.01
CG3040: DRSC22486 1.71
CR31700 (pseudo): DRSC03682 0.98
Nep3 (Neprilysin 3): DRSC20685 0.69; DRSC29285 11
CG8507: DRSC16435 7.1
CG7420: DRSC00704 2.12
CG14275: DRSC02379 13.1; DRSC27588 1.46
Plekhm1 (Pleckstrin homology and RUN domain containing M1): DRSC04527 6.98
CG13407: DRSC14583 18.4; DRSC25675 3.61
CG10433: DRSC04068 5.01; DRSC26255 10.5
Nubp1 (NUBP iron-sulfur cluster assembly factor 1): DRSC02639 4.92
Tob (Transducer of ERBB2): DRSC20294 6.34
Nap1 (Nucleosome assembly protein 1): DRSC04626 37.3
CG12674: DRSC00348 14.2
a (arc): DRSC04668 4.51; DRSC27708 7.59
ImpE2 (Ecdysone-inducible gene E2): DRSC08665 11.7; DRSC28588 6.75

Copied from the list.
Result for ImpE2 (Ecdysone-inducible gene E2) [DRSC28588] under “infection score, replicate 1”: 6.75
Nap1 (Nucleosome assembly protein 1) [DRSC04626], infection score, replicate 1 = 37.3
